Measurements reported in PubChem BioAssay AID1259414 (Drosophila RNAi Screening Center, 2018)

- Assay: 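Genome-wide screen for host control of endosymbiont load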 (primary screen)
- System: Drosophila JW18 cells infected with Wolbachia
- Knock-down reagent: long dsRNA against Drosophila genes, 0.25 µg dsRNA per well of a 384-well plate
- Timing: 5 days
- Treatment: cells persistently infected with Wolbachia before knock-down; no added drug
- Measurement: 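Automated imaging of bacterial rRNA staining divided by host cell count, reported as plate-normalised robust z-score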
- Scale: Wolbachia per cell robust z: higher = more Wolbachia per host cell than the plate typical
- Active means: 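Hit when robust z is 1.5 or more, or -1.5 or less, in at least two of three replicates; excludes dsRNAs with several or no targets, genes not expressed in JW18 and well A1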
The screen tested about 24,000 reagents; below is a random part of those with a known target gene and a result. Of all reagents, about 1,210 (5%) were called active. 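Inactive calls also include excluded dsRNAs with several or no targets, genes unexpressed in JW18, and well A1, regardless of score.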 Unmarked entries are inactive.

{"predicted target": "CG1494", "DRSC id": "DRSC20509", "Wolbachia per cell robust z, rep 1": "-2.54 (active)", "Wolbachia per cell robust z, rep 2": -2.38, "Wolbachia per cell robust z, rep 3": -2.43}
{"predicted target": "CG34324", "DRSC id": "DRSC23241", "Wolbachia per cell robust z, rep 1": -3.25, "Wolbachia per cell robust z, rep 2": 0.739, "Wolbachia per cell robust z, rep 3": 0.379}
{"predicted target": "Gmppb", "DRSC id": "DRSC12169", "Wolbachia per cell robust z, rep 1": 0.463, "Wolbachia per cell robust z, rep 2": -2.83, "Wolbachia per cell robust z, rep 3": 0.56}
{"predicted target": "Pcyt2", "DRSC id": "DRSC08531", "Wolbachia per cell robust z, rep 1": "-1.84 (active)", "Wolbachia per cell robust z, rep 2": 0.023, "Wolbachia per cell robust z, rep 3": -1.51}
{"predicted target": "BBS9", "DRSC id": "DRSC04257", "Wolbachia per cell robust z, rep 1": -0.518, "Wolbachia per cell robust z, rep 2": -5.27, "Wolbachia per cell robust z, rep 3": -0.345}
{"predicted target": "BBS9", "DRSC id": "DRSC27789", "Wolbachia per cell robust z, rep 1": -0.488, "Wolbachia per cell robust z, rep 2": 0.0617, "Wolbachia per cell robust z, rep 3": 0.0748}
{"predicted target": "CG31627", "DRSC id": "DRSC22143", "Wolbachia per cell robust z, rep 1": -0.357, "Wolbachia per cell robust z, rep 2": 0.428, "Wolbachia per cell robust z, rep 3": 0.0983}
{"predicted target": "CG15483", "DRSC id": "DRSC02493", "Wolbachia per cell robust z, rep 1": -0.31, "Wolbachia per cell robust z, rep 2": -3.36, "Wolbachia per cell robust z, rep 3": -0.62}
{"predicted target": "CG11403", "DRSC id": "DRSC18532", "Wolbachia per cell robust z, rep 1": -0.326, "Wolbachia per cell robust z, rep 2": 2.32, "Wolbachia per cell robust z, rep 3": -0.296}
{"predicted target": "Septin5", "DRSC id": "DRSC06843", "Wolbachia per cell robust z, rep 1": -0.651, "Wolbachia per cell robust z, rep 2": 0.69, "Wolbachia per cell robust z, rep 3": 0.0553}
{"predicted target": "Septin5", "DRSC id": "DRSC29954", "Wolbachia per cell robust z, rep 1": -0.16, "Wolbachia per cell robust z, rep 2": -0.14, "Wolbachia per cell robust z, rep 3": -4.46}
{"predicted target": "ATPsyndelta", "DRSC id": "DRSC18248", "Wolbachia per cell robust z, rep 1": -0.268, "Wolbachia per cell robust z, rep 2": -2.17, "Wolbachia per cell robust z, rep 3": 0.0685}

Not a retest: entries from further up.
{"predicted target": "BBS9", "DRSC id": "DRSC04257", "Wolbachia per cell robust z, rep 1": -0.518, "Wolbachia per cell robust z, rep 2": -5.27, "Wolbachia per cell robust z, rep 3": -0.345}
{"predicted target": "BBS9", "DRSC id": "DRSC27789", "Wolbachia per cell robust z, rep 1": -0.488, "Wolbachia per cell robust z, rep 2": 0.0617, "Wolbachia per cell robust z, rep 3": 0.0748}
